Anti-infective test results gathered from many reports (values: NIAID ChemDB through PubChem).

Shared fields: whole-cell or culture tests; agent: Mycobacterium tuberculosis

An empty or dashed field is not shown. Conditions beyond the fields shown may differ between rows. Percent inhibition refers to the dose given; in toxicity tests it is the harm to the cells. ECn: concentration that inhibits the pathogen or its effect by n%. A number after MIC or MFC names an inhibition level or a share of isolates. Two numbers with a dash give a range or band. MIC bound: limit read from a one-dose screen.

structure,read by,strain or isolate,dose,endpoint,result
O=C1C2C3CCC(O3)C2C(=O)N1c1nccs1,BACTEC,H37Rv,12.5 µg/mL,inhibition,7%
O=C(Nc1ccccc1)N1CCc2c(c(-c3ccccc3)nn2Cc2cn(-c3ccc(F)cc3)nn2)C1,visual reading,H37Rv,-,MIC,>200 µM
NC(=S)c1ccnc(SCc2ccccc2F)c1,-,My 331/88,-,MIC,16 µM
CC(=O)CCCCCCCCCCCC/C=C/c1ccc2c(c1)OCO2,-,-,-,MIC,32 µg/mL
COc1c(N2C[C@@H]3CCCN[C@@H]3C2)c(F)cc2c(=O)c(C(=O)O)cn(C3CC3)c12,-,H37Rv,-,MIC,≤0.125 µg/mL
CC(=O)N1CCCCCC1=O,BACTEC,H37Rv,12.5 µg/mL,inhibition,-44%
CC(C)[C@H]1CO[C@]23CC[C@H](N(Cc4ccc(C(F)(F)F)cc4)CC4CC4)C[C@H]2CCC(=O)N13,resazurin,-,-,MIC,<0.5 µM
O=C(NC1CCC1)c1cc2sc(C3CC3)nc2s1,visual reading,H37Rv,-,MIC,2.72 µM
Cc1cc(C(=O)N/N=C/c2cc(Cl)cc(Cl)c2O)c2cc(Br)ccc2n1,BACTEC,H37Rv,12.5 µg/mL,inhibition,44%
CN(C)CC1CCC/C(=C\c2ccc(OC(=O)c3ccc(Cl)cc3)cc2)C1=O,-,H37Rv,12.5 µg/mL,inhibition,99%
C=C(NC(CC(C)C)C(=O)N1CCCC1C(=O)O)C1CCCN1C(=O)C(NC(=O)C(C)NC(=O)C(NC(=O)C(NC=O)C(C)CC)C(C)O)C(C)C,agar,H37Rv,-,MIC,4 µg/mL
Nc1nc(-c2ccccc2)c(N=Nc2ccc(Cl)cc2)s1,BACTEC,H37Rv,6.25 µg/mL,inhibition,18%
N/C(=N\NC(CC(=O)c1ccc(-c2ccccc2)cc1)c1ccncc1)c1ccccn1,-,H37Rv,-,MIC,16 µg/mL
Nc1ccc(C(=O)OCc2ccccc2)c(O)c1,-,H37Rv (streptomycin-resistant),-,MIC,2.5 µg/mL
COC(=O)c1cc(N)nn1C,resazurin,H37Rv,6.25 µg/mL,inhibition,19%
O=C(Nc1ccccc1)N1CCc2c(c(-c3ccccc3)nn2Cc2cn(-c3cc(Cl)cc(Cl)c3)nn2)C1,visual reading,H37Rv,-,MIC,91.83 µM
CCCCCCCC/C=C\CCCCCCCC(=O)NNC(=O)c1ccncc1,resazurin,ATCC 35822 INHr,-,MIC100,1.56 µg/mL
COc1cc(-c2cc(C(=O)O)c3cc4ccccc4cc3n2)cc(OC)c1OC,BACTEC,H37Rv,12.5 µg/mL,inhibition,12%
Cc1ccc(C(=O)CC(N/N=C(\N)c2ccccn2)c2ccncc2)cc1,-,H37Rv,-,MIC,8 µg/mL
Cc1c(C(=O)C/C(=N\NC(=O)c2ccccc2)C(=O)Nc2ccc(Cl)cc2)[n+](=O)c2ccccc2n1[O-],BACTEC,H37Rv,-,MIC,≥12.5 µg/mL
CC(=O)/C=C/CCCCCCCCCCCCc1ccccc1,-,-,-,MIC,>128 µg/mL
N/C(=N\NC(CC(=O)c1ccc(Cl)cc1)c1ccncc1)c1ccccn1,-,H37Rv,-,MIC,2 µg/mL
CC(=O)NC[C@H]1CN(c2ccc(N3CCOCC3)c(F)c2)C(=O)O1,-,H37Rv,-,MIC,0.125 µg/mL
CN(C)CC1CCC/C(=C\c2ccc(OC(=O)c3ccccc3)cc2)C1=O,-,H37Rv,12.5 µg/mL,inhibition,100%
N#Cc1ccnc(SCc2cccc(F)c2)c1,-,My 331/88,-,MIC,125 µM
CCc1nc2ccccc2n1CCCCOc1ccc(C)c(Cl)c1,turbidity / fluorescence,H37Rv-MA cydC::aph,-,MIC90,0.18 µM
NCC[C@H](O)C(=O)N[C@@H]1C[C@H](N)[C@@H](O[C@H]2O[C@H](CN)[C@@H](O)[C@H](O)[C@H]2O)[C@H](O)[C@H]1O[C@H]1O[C@H](CO)[C@@H](O)[C@H](N)[C@H]1O,-,30 isolates/HIV+,-,MIC50,16 µg/mL
CO[C@H]1/C=C/O[C@@]2(C)Oc3c(C)c(O)c4c(O)c(c(/C=N/N5CCN(C)CC5)c(O)c4c3C2=O)NC(=O)/C(C)=C\C=C\[C@H](C)[C@H](O)[C@@H](C)[C@@H](O)[C@@H](C)[C@H](OC(C)=O)[C@@H]1C,turbidity / fluorescence,H37Rv-MA,-,MIC90,0.036 µM
CC(=O)CCCCCCCCCCCCCCc1ccccc1,-,-,-,MIC,>128 µg/mL
N/C(=N\NC(CC(=O)c1cccc(Cl)c1)c1ccncc1)c1ccccn1,-,H37Rv,-,MIC,4 µg/mL
O=C(O)CCSc1nc2c(=O)[nH][nH]c(=O)c2n1Cc1ccccc1,BACTEC,H37Rv,-,MIC bound,>12.5 µg/mL
NC(=S)c1ccnc(SCc2ccccc2Cl)c1,-,My 331/88,-,MIC,31 µM
N/C(=N\NC(CC(=O)c1ccc(-c2ccccc2)cc1)c1ccccn1)c1ccccn1,-,H37Rv,-,MIC,8 µg/mL
Cn1nnc(/C(N)=N/N=C/c2ccccc2)n1,BACTEC,H37Rv,12.5 µg/mL,inhibition,0%
CC(C)[C@H]1CO[C@]23CC[C@H](N(Cc4ccc(C(F)(F)F)cc4)C4CN(CCCF)C4)C[C@H]2CCC(=O)N13,resazurin,-,-,MIC,<0.5 µM
N#Cc1ccnc(SCc2ccccc2)c1,-,My 331/88,-,MIC,125 µM
CCCCCCC/C=C\CCCCCCCC(=O)NN,resazurin,ATCC 27294 H37Rv,-,MIC100,50 µg/mL
COc1cc(/C=C/C(=O)NCCc2ccc(O)cc2)ccc1O,-,-,-,MIC,128 µg/mL
NC(=S)c1ccnc(SCc2cccc(Cl)c2)c1,-,My 331/88,-,MIC,16 µM
Cc1nc(Nc2ccc(Cl)cc2)sc1C(=O)NNc1ccc([N+](=O)[O-])cc1[N+](=O)[O-],BACTEC,H37Rv,-,MIC bound,>6.25 µg/mL
C[C@H]1C[C@@H]1NC(=O)c1cc2sc(C3CC3)nc2s1,visual reading,H37Rv,-,MIC,1.88 µM
CCc1ccc(-n2cc(Cn3nc(-c4ccccc4)c4c3CCN(C(=O)Nc3ccccc3)C4)nn2)cc1,visual reading,H37Rv,-,MIC,49.64 µM
CC(=O)/C=C/CCCCCCCCCCCCCCCCCCCCc1ccc2c(c1)OCO2,-,-,-,MIC,>128 µg/mL
O=S(=O)([O-])c1cc(N=Nc2cc(S(=O)(=O)[O-])c3ccccc3c2O)ccc1/C=C/c1ccc(N=Nc2cc(S(=O)(=O)[O-])c3ccccc3c2O)cc1S(=O)(=O)[O-].[Na+].[Na+].[Na+].[Na+],BACTEC,H37Rv,12.5 µg/mL,inhibition,0%
COc1c(N2CCNC(C)C2)c(F)cc2c(=O)c(C(=O)O)cn(C3CC3)c12,-,25 strains,-,MIC50,0.1 µg/mL
CCc1cc(C(N)=S)ccn1,-,RM22,-,MIC,5 µg/mL
O=C1/C(=C/c2ccc(OC(=O)c3ccc(Cl)cc3)cc2)CCC/C1=C\c1ccc(OC(=O)c2ccc(Cl)cc2)cc1,-,H37Rv,-,EC50,>12.5 µg/mL
CC(C)[C@H]1CO[C@]23CC[C@H](OCc4ccc(C(F)(F)F)cc4)C[C@H]2CCC(=O)N13,resazurin,-,-,MIC,<0.5 µM
COc1ccccc1OC(=O)c1ccc(N)cc1O,-,H37Rv (p-aminosalicylate-resistant),-,MIC,75 µg/mL
COc1ccc(C(Cn2ccnc2)Sc2ccc(Cl)c(Cl)c2)cc1,resazurin,H37Rv,6.25 µg/mL,inhibition,94%
CN(C)CC1CCC/C(=C\c2ccc(OC(=O)/C=C/c3ccc(F)cc3)cc2)C1=O,-,H37Rv,12.5 µg/mL,inhibition,99%
Cc1ccc(-n2cc(Cn3nc(-c4ccccc4)c4c3CCN(C(=O)Nc3ccccc3)C4)nn2)cc1C,visual reading,H37Rv,-,MIC,199 µM
N/C(=N\NC(CC(=O)c1ccc(Cl)c(Cl)c1)c1cccnc1)c1ccccn1,-,H37Rv,-,MIC,16 µg/mL
CCCOC(=O)/C=C/C(=O)N1CC(C)N(C(=O)/C=C/C(=O)OCCC)CC1C,BACTEC,H37Rv,12.5 µg/mL,inhibition,12%
CC(C)[C@H]1CO[C@]23CC[C@H](N(Cc4ccc(C(F)(F)F)cc4)C4CN(C=O)C4)C[C@H]2CCC(=O)N13,resazurin,-,-,MIC,0.5–5 µM
C[C@H]1C[C@@H]1NC(=O)c1cc2sc(OC3CC4(COC4)C3)nc2s1,visual reading,H37Rv,-,MIC,0.77 µM
O=C(Nc1ccccc1)N1CCc2c(c(-c3ccccc3)nn2Cc2cn(-c3ccc(Br)c(C(F)(F)F)c3)nn2)C1,visual reading,H37Rv,-,MIC,161 µM
O=C1c2ccccc2C(=O)c2sc(Nc3ccc(Cl)c(Cl)c3)nc21,BACTEC,H37Rv,-,MIC bound,≤12.5 µg/mL
N/C(=N\NC(CC(=O)c1ccc(Cl)cc1)c1ccccn1)c1ccccn1,-,H37Rv,-,MIC,4 µg/mL
CCCCCCCCCCCCCCCCC(=O)NNC(=O)c1ccncc1,resazurin,ATCC 35822 INHr,-,MIC100,3.12 µg/mL
Cc1cccc(OC(=O)c2ccc(N)cc2O)c1,-,Frankfurt,-,MIC,0.05 µg/mL
C[C@H]1C[C@@H]1NC(=O)c1cc2sc(OC3CC(N4CCOCC4)C3)nc2s1,visual reading,H37Rv,-,MIC,0.98 µM
CC(C)[C@H]1CO[C@]23CC[C@H](N(Cc4ccc(C(F)(F)F)cc4)CC4CN(C(=O)OC(C)(C)C)C4)C[C@H]2CCC(=O)N13,resazurin,-,-,MIC,<0.5 µM
NC(=S)c1ccnc(SCc2ccc(Cl)cc2)c1,-,My 331/88,-,MIC,31 µM
O=C(Nc1ccccc1)N1CCc2c(c(-c3ccccc3)nn2Cc2cn(-c3ccccc3[N+](=O)[O-])nn2)C1,visual reading,H37Rv,-,MIC,192.1 µM
COc1nc2ccc(Br)cc2cc1[C@@H](c1ccccc1)[C@@](O)(CCN(C)C)c1cccc2ccccc12,turbidity / fluorescence,H37Rv-LP,-,MIC90,0.24 µM
COc1ccc2c(c1)c(=O)c1c(NCCN(C)C)ccc3nnn2c31,BACTEC,H37Rv,-,MIC bound,≤12.5 µg/mL
CC(C)[C@H]1CO[C@]23CC[C@H](N(Cc4ccc(C(F)(F)F)nc4)CC4CN(C(=O)OC(C)(C)C)C4)C[C@H]2CCC(=O)N13,resazurin,-,-,MIC,0.5–5 µM
CN(C)CC1CCC/C(=C\c2ccc(OC(=O)/C=C/c3ccccc3)cc2)C1=O,-,H37Rv,12.5 µg/mL,inhibition,99%
CCc1nc2ccc(C)cc2n1CCCCNc1ccccc1,turbidity / fluorescence,H37Rv-LP,-,MIC90,0.34 µM
COc1ccc(-n2cc(Cn3nc(-c4ccccc4)c4c3CCN(C(=O)Nc3ccccc3)C4)nn2)cc1,visual reading,H37Rv,-,MIC,24.72 µM
CC(C)[C@H]1CO[C@]23CC[C@@H](OCc4ccc(C(F)(F)F)cc4)C[C@H]2CCC(=O)N13,resazurin,-,-,MIC,<0.5 µg/mL
O=C(O)c1cn(C2CC2)c2cc(N3CCNCC3)c(F)cc2c1=O,-,30 isolates/HIV+,-,MIC50,4 µg/mL
CCOCCOCCOC12C(=O)C(Cl)=C(Cl)C(=O)C13C1C4C(Cl)C2CC413,resazurin,H37Rv,-,MIC bound,>6.25 µg/mL
COc1cc(CCc2ccc3c(c2)OCO3)oc(=O)c1,-,-,-,MIC,4 µg/mL
S=c1[nH]nc2nc3c4ccccc4c4ccccc4c3nn12,BACTEC,H37Rv,-,MIC bound,>12.5 µg/mL
NC(=O)c1cnc(Cl)cn1,-,DHMH 4319,-,MIC,8 µg/mL
C=C1c2c(O)c(C)c(O)c(C(C)=O)c2OC12CC(=O)C(C(=O)O)=C2C,BACTEC,H37Rv,-,MIC bound,>12.5 µg/mL
CC(C)[C@H]1CO[C@]23CC[C@H](OC(c4ccc(C(F)(F)F)cc4)c4ccc(C(F)(F)F)cc4)C[C@H]2CCC(=O)N13,resazurin,-,-,MIC,<0.5 µM
O=c1c2cc3ccccc3n2c(=O)c2cc3ccccc3n12,BACTEC,H37Rv,12.5 µg/mL,inhibition,-1%
O=C(/C=C/c1ccccc1)Oc1ccc(/C=C2\CCC/C(=C\c3ccc(OC(=O)/C=C/c4ccccc4)cc3)C2=O)cc1,-,H37Rv,-,EC50,>12.5 µg/mL
CC(=O)OC1NC(=O)C(OC(C)=O)NC1=O,BACTEC,H37Rv,12.5 µg/mL,inhibition,-19%
CO[C@H]1/C=C/O[C@@]2(C)Oc3c(C)c(O)c4c(O)c(c(/C=N/N5CCN(C6CCCC6)CC5)c(O)c4c3C2=O)NC(=O)/C(C)=C\C=C\[C@H](C)[C@H](O)[C@@H](C)[C@@H](O)[C@@H](C)[C@H](OC(C)=O)[C@@H]1C,-,RM22,-,MIC,32 µg/mL

The last 6 rows once more:

C=C1c2c(O)c(C)c(O)c(C(C)=O)c2OC12CC(=O)C(C(=O)O)=C2C ; read by: BACTEC ; strain or isolate: H37Rv ; endpoint: MIC bound ; result: >12.5 µg/mL
CC(C)[C@H]1CO[C@]23CC[C@H](OC(c4ccc(C(F)(F)F)cc4)c4ccc(C(F)(F)F)cc4)C[C@H]2CCC(=O)N13 ; read by: resazurin ; endpoint: MIC ; result: <0.5 µM
O=c1c2cc3ccccc3n2c(=O)c2cc3ccccc3n12 ; read by: BACTEC ; strain or isolate: H37Rv ; dose: 12.5 µg/mL ; endpoint: inhibition ; result: -1%
O=C(/C=C/c1ccccc1)Oc1ccc(/C=C2\CCC/C(=C\c3ccc(OC(=O)/C=C/c4ccccc4)cc3)C2=O)cc1 ; strain or isolate: H37Rv ; endpoint: EC50 ; result: >12.5 µg/mL
CC(=O)OC1NC(=O)C(OC(C)=O)NC1=O ; read by: BACTEC ; strain or isolate: H37Rv ; dose: 12.5 µg/mL ; endpoint: inhibition ; result: -19%
CO[C@H]1/C=C/O[C@@]2(C)Oc3c(C)c(O)c4c(O)c(c(/C=N/N5CCN(C6CCCC6)CC5)c(O)c4c3C2=O)NC(=O)/C(C)=C\C=C\[C@H](C)[C@H](O)[C@@H](C)[C@@H](O)[C@@H](C)[C@H](OC(C)=O)[C@@H]1C ; strain or isolate: RM22 ; endpoint: MIC ; result: 32 µg/mL